These results are taken from PMC3140584, “Structure–function relationships of the competence lipoprotein ComL and SSB in meningococcal transformation”.

For some of these results: No signal at the amounts used counts as a negative. At least one verdict was read from the data and is not stated in words by the source. For some of these results: Protein sequences can lack the tags named with them. The exact form of at least one protein or probe is not confirmed. For some of these results: Where cells or extracts were used, other partners may take part.

Data set [1] addresses T1, ComL (Neisseria meningitidis MC58) (UniProt Q9K0B1).
T1 sequence (looked up, limits assumed): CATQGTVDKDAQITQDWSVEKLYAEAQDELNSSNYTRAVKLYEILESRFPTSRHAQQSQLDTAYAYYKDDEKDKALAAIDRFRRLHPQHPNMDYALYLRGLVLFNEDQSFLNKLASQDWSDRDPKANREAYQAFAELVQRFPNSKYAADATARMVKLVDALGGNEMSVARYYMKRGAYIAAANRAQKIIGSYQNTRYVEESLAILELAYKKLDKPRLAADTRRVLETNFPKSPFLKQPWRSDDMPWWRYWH
As to the kind of experiment: EMSA. Particulars: EMSA: 4.5 fmol DNA in 10 µl, 10% glycerol, 5 mM MgCl2, 0.02 mg/ml BSA, 1 mM DTT, with half volume of protein in 50 mM NaH2PO4, 300 mM NaCl, pH 8.0, recombinant protein, protein details: C-terminal 6xHis, label: 5'-32P.

Data set [2] addresses T2, ComL (native) (Neisseria meningitidis H44/76) (UniProt Q9K0B1).
T2 sequence (looked up, limits assumed): T1 sequence (looked up, limits assumed)
The data set can be described thus: solid-phase overlay (Southwestern). The conditions noted are these: protein in an extract, label: 5'-32P.

Data set [3] has as its target T3, SSB (native) (Neisseria meningitidis H44/76, MC58, Z2491) (UniProt P66849).
T3 sequence (looked up, limits assumed): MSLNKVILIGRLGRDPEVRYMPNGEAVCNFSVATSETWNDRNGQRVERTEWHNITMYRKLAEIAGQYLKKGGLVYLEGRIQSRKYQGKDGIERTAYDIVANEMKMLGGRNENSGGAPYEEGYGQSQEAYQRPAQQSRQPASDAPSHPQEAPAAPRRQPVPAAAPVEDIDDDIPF
The data set can be described thus: solid-phase overlay (Southwestern). Particulars: protein in an extract, label: 5'-32P.

Data set [4] deals with T4, NMB1796 (Neisseria meningitidis) (UniProt Q9JY11).
T4 sequence (looked up, limits assumed): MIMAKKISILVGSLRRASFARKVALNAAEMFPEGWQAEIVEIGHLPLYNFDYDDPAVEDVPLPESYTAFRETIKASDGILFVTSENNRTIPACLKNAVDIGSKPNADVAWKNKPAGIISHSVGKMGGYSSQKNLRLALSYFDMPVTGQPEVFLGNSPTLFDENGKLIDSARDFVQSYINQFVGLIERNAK
As to the kind of experiment: solid-phase overlay (Southwestern). The conditions noted are these: protein in an extract; label: 5'-32P; single-stranded DNA.

For data set [5], the target named is T5, NMB1963 (Neisseria meningitidis) (UniProt Q9JXN1).
T5 sequence (looked up, limits assumed): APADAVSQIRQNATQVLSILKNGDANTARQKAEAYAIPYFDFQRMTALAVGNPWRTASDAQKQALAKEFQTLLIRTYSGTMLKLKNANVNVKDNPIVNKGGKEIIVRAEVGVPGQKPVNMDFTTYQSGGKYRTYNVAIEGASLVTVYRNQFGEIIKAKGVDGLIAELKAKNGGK
As to the kind of experiment: solid-phase overlay (Southwestern). Particulars: protein in an extract; label: 5'-32P; single-stranded DNA.

Data set [6] addresses PilG (native) (Neisseria meningitidis) (UniProt Q7DDR1). As to the kind of experiment: solid-phase overlay (Southwestern). The conditions noted are these: protein in an extract; label: 5'-32P; single-stranded DNA.
Data set [7] addresses T6, PilQ (native) (Neisseria meningitidis) (UniProt Q70M91).
T6 sequence (looked up, limits assumed): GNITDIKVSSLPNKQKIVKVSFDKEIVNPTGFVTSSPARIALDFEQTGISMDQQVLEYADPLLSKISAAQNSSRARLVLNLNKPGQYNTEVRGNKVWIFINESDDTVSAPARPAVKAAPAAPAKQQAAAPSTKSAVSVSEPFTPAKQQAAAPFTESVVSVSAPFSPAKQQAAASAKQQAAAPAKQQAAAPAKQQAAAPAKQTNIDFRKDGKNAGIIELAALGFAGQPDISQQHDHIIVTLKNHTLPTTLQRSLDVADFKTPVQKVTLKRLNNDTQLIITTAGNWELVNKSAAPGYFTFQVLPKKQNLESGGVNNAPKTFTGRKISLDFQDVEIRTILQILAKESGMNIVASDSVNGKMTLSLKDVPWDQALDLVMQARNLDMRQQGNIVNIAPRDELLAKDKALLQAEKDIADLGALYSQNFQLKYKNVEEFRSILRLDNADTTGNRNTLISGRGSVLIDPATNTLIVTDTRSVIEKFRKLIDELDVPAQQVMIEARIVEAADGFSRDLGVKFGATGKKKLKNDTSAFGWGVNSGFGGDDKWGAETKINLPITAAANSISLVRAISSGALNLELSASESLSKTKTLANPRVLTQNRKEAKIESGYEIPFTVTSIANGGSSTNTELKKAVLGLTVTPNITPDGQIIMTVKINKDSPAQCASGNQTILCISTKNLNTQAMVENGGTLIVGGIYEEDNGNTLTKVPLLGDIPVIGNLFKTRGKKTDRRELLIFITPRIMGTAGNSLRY
The data set can be described thus: solid-phase overlay (Southwestern). Particulars: possible outer membrane contamination; protein in an extract; label: 5'-32P; single-stranded DNA.

[8] abbreviates: EDTA or no additive (no Mg2+), single-stranded DNA.

For the sequence “AACAACAACAAAAGGCCTGTCATCCAACTTCCGGACAGTAAACAACAACAAC (double strand) [HH10/HH11 dsDNA without DUS]”, the binding result in data set [1] (EDTA or no additive (no Mg2+)) is “no binding”.
Take “AACAACAACAAAAGGCCTGTCATCCAACTTCCGGACAGTAAACAACAACAAC [HH10 ssDNA without DUS]”: the binding result in data set [1] (setting [8]) is listed as “no binding”.
As for “AACAACAACAAATGCCGTCTGAACCAACATGCCGTCTGAAAACAACAACAAC (double strand) [HH7/HH8 dsDNA with 12 bp DUS]”, the binding result in data set [1] (5 mM Mg2+, same results as without DUS) is on record as “binds”; in data set [1] (EDTA or no additive (no Mg2+)), “no binding”.
In the case of “AACAACAACAAATGCCGTCTGAACCAACATGCCGTCTGAAAACAACAACAAC [HH7 ssDNA with 12 bp DUS]”, the binding result is recorded as “binds” in data set [1] (5 mM Mg2+, same results as without DUS, single-stranded DNA) and “no binding” in data set [1] (setting [8]).
“CAACAACAACAACAGCCGTCTGAACCAAATTCAGACGGCAACAACAACAACA (double strand) [T1T2 dsDNA with 10 bp DUS]”: the binding result in data set [2] and in data set [3] was “binds” in each case.
Take “CAACAACAACAACAGCCGTCTGAACCAAATTCAGACGGCAACAACAACAACA [T1 ssDNA with 10 bp DUS]”: the binding result in data set [2] (single-stranded DNA), in data set [4], in data set [5], in data set [6], in data set [7] and in data set [3] (single-stranded DNA) was “binds” each time.
In the case of “CAACAACAACAACAGGCCTGTCATCCAAACTGACAGGCCAACAACAACAACA [T3 ssDNA without DUS]”, the binding result in data set [2] (single-stranded DNA) and in data set [3] (single-stranded DNA) was “binds” in each case.
